A mixed list of measured activities; the numbers were collected in NIAID ChemDB.

Common to all: tests in culture; species: Candida albicans; measure: zone

Rows are shuffled and stem from different studies. An empty or dashed field is not shown. Zones are inhibition diameters on agar.

smiles	strain or isolate	method	tested at	value
CCn1c(C(F)(F)F)nc2ccc([N+](=O)[O-])cc21	MTCC 227		500 µg/mL	900 mm
Cc1cccc(C2=NC(=O)C(C(=O)Nc3scc(-c4ccccc4)c3C#N)C=C2)n1		agar diffusion / agar	1000 µg/mL	0 mm
Cc1ccc2c(c1)C1(SCC(=O)N1c1c(C)n(C)n(-c3ccccc3)c1=O)C(=O)N2CCCCCCBr	MTCC 227	agar diffusion	100 µg/mL	15 mm
N#Cc1ccc(Nc2nc(Oc3cccc4cccnc34)nc(N3CCN(c4ccccc4)CC3)n2)cc1C(F)(F)F	MTCC 183	agar diffusion / agar	100 µg/disc	22 mm
COc1cccc(/C=C/C(=O)c2ccc(C(=O)/C=C/c3cccc(OC)c3)cc2)c1	ATCC 10231	agar diffusion / agar	400 µg/mL	0 mm
Cc1nn(-c2ccccc2)c2c1C1(C(=O)N(CCCCCCN3C(=O)C4(SCC(=O)N4c4c(C)n(C)n(-c5ccccc5)c4=O)c4cc(F)ccc43)c3ccc(F)cc31)c1c(C)nn(-c3ccccc3)c1O2	MTCC 227	agar diffusion	100 µg/mL	21 mm
CCC(C)CCCCCCCCCCC(=O)N[C@H]1C[C@@H](O)[C@@H]([n+]2cc[nH]c2)NC(=O)C2[C@@H](O)[C@@H](C)CN2C(=O)C(CO)NC(=O)C([C@H](O)C(O)c2ccc(O)cc2)NC(=O)NC(=O)[C@@H]2C[C@@H](O)CN2C(=O)[C@H]([C@@H](C)O)NC1=O	IV	agar	5 mg/mL	24 mm
C/C=C/C1=CC2=CC(=O)[C@](C)(OC(=O)c3c(C)cc(O)cc3OC)C(=O)C2=CO1	ATCC 64548	agar diffusion	25 µg/disc	0 mm
COc1cc(OC)cc(C2CC(c3ccc(OC)cc3O)=NN2c2ccc(S(N)(=O)=O)cc2)c1	MTCC 227	agar diffusion / agar	4 mg/mL	0 mm
COc1ccccc1/C=N/N=C1/NC(=O)/C(=C\c2coc3ccc(C)cc3c2=O)S1	ATCC 10231	agar diffusion	200 µg	0 mm
N#Cc1c(-c2ccc(Cl)cc2)csc1N		agar diffusion / agar	1000 µg/mL	2.6 mm
CCC(C)CCCCCCCCCCC(=O)N[C@H]1C[C@@H](O)[C@@H](OC)NC(=O)C2[C@@H](O)[C@@H](C)CN2C(=O)C(CO)NC(=O)C([C@H](O)C(O)c2ccc(O)cc2)NC(=O)NC(=O)[C@@H]2C[C@@H](O)CN2C(=O)[C@H]([C@@H](C)O)NC1=O	IV	agar	1 mg/mL	25 mm
O=C1CS/C(=N/N=C/c2csc(-c3ccccc3)n2)N1	ATCC 10231	agar diffusion	200 µg	42 mm
N=C1C(=S)N(c2ccc(Br)cc2)C(=O)N1c1ccc(Oc2ccc(N3C(=N)C(=S)N(c4ccc(Br)cc4)C3=O)cc2)cc1		agar diffusion / agar	100000 µM	23 mm
C#Cc1c(-c2ccc(C)cc2)c(C#N)c2nc(=O)c3c(-c4ccc(Cl)cc4)csc3n2c1N		agar diffusion / agar	1000 µg/mL	0 mm
C#CCn1c(C(F)(F)F)nc2cc([N+](=O)[O-])ccc21	MTCC 227		500 µg/mL	700 mm
Cc1ccc(S(=O)(=O)CNc2oc3[nH]c(=O)[nH]c(=O)c3c2-c2ccc(F)cc2)cc1		agar diffusion / agar	50 µg/mL	7 mm
O=[N+]([O-])c1ccc2nc(C(F)(F)C(F)(F)F)n(CCCCCl)c2c1	MTCC 227		500 µg/mL	800 mm
Cc1ccc(S(=O)(=O)CNc2oc3[nH]c(=O)[nH]c(=O)c3c2-c2ccc(Cl)cc2)cc1		agar diffusion / agar	50 µg/mL	0 mm
Cc1ccc2c(c1)C1(C(=O)N2CCCCCCN2C(=O)C3(SCC(=O)N3c3c(C)n(C)n(-c4ccccc4)c3=O)c3ccccc32)c2c(C)nn(-c3ccccc3)c2Oc2c1c(C)nn2-c1ccccc1	MTCC 227	agar diffusion	100 µg/mL	18 mm
N=C1C(=S)N(c2ccccc2)C(=O)N1CCCCCCN1C(=N)C(=S)N(c2ccccc2)C1=O		agar diffusion / agar	100000 µM	20 mm
CC(=O)N1CCN(c2nc(Nc3ccc(C#N)c(C(F)(F)F)c3)nc(Oc3cccc4cccnc34)n2)CC1	MTCC 183	agar diffusion / agar	100 µg/disc	19 mm
CCC(C)CCCCCCCCCCC(=O)N[C@H]1C[C@@H](O)[C@@H](Sc2ccccc2)NC(=O)C2[C@@H](O)[C@@H](C)CN2C(=O)C(CO)NC(=O)C([C@H](O)C(Sc2ccccc2)c2ccc(O)cc2)NC(=O)NC(=O)[C@@H]2C[C@@H](O)CN2C(=O)[C@H]([C@@H](C)O)NC1=O	IV	agar	2 mg/mL	15 mm
O=[N+]([O-])c1ccc2c(c1)nc(C(F)(F)F)n2CCCCCl	MTCC 227		500 µg/mL	500 mm
N#Cc1c(-c2ccc(Cl)cc2)csc1NC(=O)C1C=NN=C1N		agar diffusion / agar	1000 µg/mL	6.6 mm
CCC(C)CCCCCCCCCCC(=O)N[C@H]1C[C@@H](O)[C@@H](S(=O)(=O)CC(=O)OC)NC(=O)C2[C@@H](O)[C@@H](C)CN2C(=O)C(CO)NC(=O)C([C@H](O)C(O)c2ccc(O)cc2)NC(=O)NC(=O)[C@@H]2C[C@@H](O)CN2C(=O)[C@H]([C@@H](C)O)NC1=O	IV	agar	1 mg/mL	21 mm
Cc1ccc(S(=O)(=O)CNc2oc3[nH]c(=O)[nH]c(=O)c3c2-c2ccsc2C=O)cc1		agar diffusion / agar	50 µg/mL	0 mm
O=C(OC(CCn1ccnc1)c1ccccc1)c1cccnc1		agar diffusion	1000 µg	14 mm
O=C1N/C(=N/N=C/c2c(Cl)cccc2Cl)S/C1=C/c1ccc([N+](=O)[O-])cc1	ATCC 10231	agar diffusion	200 µg	12 mm
C[C@H]1[C@H](O)[C@@H](C)/C=C/C=C/C=C/C=C/C=C/C=C/C=C/[C@H](O[C@@H]2O[C@H](C)[C@@H](O)[C@H](N)[C@@H]2O)C[C@@H]2O[C@](O)(C[C@@H](O)C[C@@H](O)CC[C@H](O)[C@@H](O)C[C@@H](O)CC(=O)O[C@H]1C)C[C@H](O)[C@H]2C(=O)O	AI	agar diffusion	100 µg/mL	30 mm
O=C(/C=C/c1cccc(Br)c1)c1ccc(C(=O)/C=C/c2cccc(Br)c2)cc1	ATCC 10231	agar diffusion / agar	400 µg/mL	0 mm
Cc1ccc2c(c1)C1(C(=O)N2CCCCCCN2C(=O)C3(SCC(=O)N3c3c(C)n(C)n(-c4ccccc4)c3=O)c3cc(F)ccc32)c2c(C)nn(-c3ccccc3)c2Oc2c1c(C)nn2-c1ccccc1	MTCC 227	agar diffusion	100 µg/mL	18 mm
O=C1N/C(=N/N=C/c2c(Cl)cccc2Cl)S/C1=C/c1coc2ccc(Cl)cc2c1=O	ATCC 10231	agar diffusion	200 µg	0 mm
CCOC(=O)Cn1c(C(F)(F)F)nc2cc(C(=O)c3ccccc3)ccc21	MTCC 227		500 µg/mL	500 mm
O=C(OC(CCn1ccnc1)c1ccccc1)c1ccc(F)cc1		agar diffusion	1000 µg	16 mm
Cc1ccc2c(c1)C1(SCC(=O)N1c1c(C)n(C)n(-c3ccccc3)c1=O)C(=O)N2CCCCCCN1C(=O)C2(c3ccccc31)c1c(C)nn(-c3ccccc3)c1Oc1c2c(C)nn1-c1ccccc1	MTCC 227	agar diffusion	100 µg/mL	17 mm
N=C1C(=S)N(c2ccccc2)C(=O)N1c1ccc(Oc2ccc(N3C(=N)C(=S)N(c4ccccc4)C3=O)cc2)cc1		agar diffusion / agar	100000 µM	27 mm
O=C(OC(CCn1ccnc1)c1ccccc1)c1ccc(C(F)(F)F)cc1		agar diffusion	1000 µg	14 mm
CN(C)/C=C(\C#N)C(=O)Nc1scc(-c2ccccc2)c1C#N		agar diffusion / agar	1000 µg/mL	4 mm
COc1ccc(OC)c(C2CC(c3ccc(F)cc3)=NN2c2ccc(S(N)(=O)=O)cc2)c1	MTCC 227	agar diffusion / agar	4 mg/mL	0 mm
CCOC(=O)Cn1c(C(F)(F)C(F)(F)F)nc2cc(C(=O)c3ccccc3)ccc21	MTCC 227		500 µg/mL	700 mm
[Cl][Zn+].[O-]c1cc2ccccc2cc1/C=N/NC(=S)N/N=C/c1cc2ccccc2cc1O		agar diffusion / agar	2 mg/mL	0 mm
COc1cc(OC)cc(C2CC(c3ccc(F)cc3)=NN2c2ccc(S(N)(=O)=O)cc2)c1	MTCC 227	agar diffusion / agar	4 mg/mL	0 mm
CCC(C)CCCCCCCCCCC(=O)N[C@H]1C[C@@H](O)[C@@H](OC)NC(=O)C2[C@@H](O)[C@@H](C)CN2C(=O)C(CO)NC(=O)C([C@H](O)C(OC)c2ccc(O)cc2)NC(=O)NC(=O)[C@@H]2C[C@@H](O)CN2C(=O)[C@H]([C@@H](C)O)NC1=O	IV	agar	2 mg/mL	18 mm
N=C1C(=S)N(c2ccc(Br)cc2)C(=O)N1CCCCCCN1C(=N)C(=S)N(c2ccc(Br)cc2)C1=O		agar diffusion / agar	100000 µM	21 mm
COc1ccc(/C=C/C(=O)c2ccc(C(=O)/C=C/c3ccc(OC)c(OC)c3)cc2)cc1OC	ATCC 10231	agar diffusion / agar	400 µg/mL	0 mm
COc1cc(N2C(=N)C(=S)N(c3ccc(Cl)cc3)C2=O)ccc1-c1ccc(N2C(=N)C(=S)N(c3ccc(Cl)cc3)C2=O)cc1OC		agar diffusion / agar	100000 µM	20 mm
Cc1ccc(C(=O)OC(CCn2ccnc2)c2ccccc2)cc1		agar diffusion	1000 µg	16 mm
N#Cc1ccc(Nc2nc(Oc3cccc4cccnc34)nc(N3CCOCC3)n2)cc1C(F)(F)F	MTCC 183	agar diffusion / agar	100 µg/disc	23 mm
Cc1ccc2c(c1)C1(SCC(=O)N1c1c(C)n(C)n(-c3ccccc3)c1=O)C(=O)N2CCCCCCN1C(=O)C2(c3cc(F)ccc31)c1c(C)nn(-c3ccccc3)c1Oc1c2c(C)nn1-c1ccccc1	MTCC 227	agar diffusion	100 µg/mL	19 mm

3 of the rows above, restated:

smiles,strain or isolate,method,tested at,value
N=C1C(=S)N(c2ccc(Br)cc2)C(=O)N1c1ccc(Oc2ccc(N3C(=N)C(=S)N(c4ccc(Br)cc4)C3=O)cc2)cc1,,agar diffusion / agar,100000 µM,23 mm
COc1cc(OC)cc(C2CC(c3ccc(F)cc3)=NN2c2ccc(S(N)(=O)=O)cc2)c1,MTCC 227,agar diffusion / agar,4 mg/mL,0 mm
COc1ccc(OC)c(C2CC(c3ccc(F)cc3)=NN2c2ccc(S(N)(=O)=O)cc2)c1,MTCC 227,agar diffusion / agar,4 mg/mL,0 mm